Anti-infective test results gathered from many reports (values: NIAID ChemDB through PubChem).

All rows: whole-cell or culture tests; species: Mycobacterium bovis BCG

ECn is the concentration giving n% inhibition of infection, replication or growth. A number after MIC or MFC names an inhibition level or a share of isolates. Neighbouring rows are from separate reports. An empty or dashed field is not shown.

compound,strain or isolate,read by,read-out,setting,changes,result
CC(Cc1ccc(C(C)(C)C)cc1)Nc1ncnc2ccccc12,,luminescence,MIC50,,,>20 µM
CCc1ccccc1OCCCON1C(N)=NC(N)=NC1(C)C,,fluorescence,MIC,,DHFR-overexpressing,>33.6 µM
Cc1c(CN2CCN(C)CC2)cc(-c2ccc(Cl)cc2)n1-c1ccc(Cl)cc1,,,MIC,,,1.88 µM
C[C@@H]1CN(c2c(F)c(N)c3c(=O)c(C(=O)O)cn(C4CC4)c3c2F)C[C@H](C)N1,Pasteur,broth dilution / visual reading,MIC,,,0.1 µg/mL
COc1ccc(/C(C)=N/NC(N)=S)cc1,Carrying pMV261-ethA,,MIC,,,0.25 µg/mL
CNO,,visual reading,MIC,,,1.9 µg/mL
CC(C)CCOc1ccc(NC(=S)Nc2ccc(OCCC(C)C)cc2)cc1,NCTC 5692 ethR::hyg,,MIC,,,0.5 µg/mL
Fc1ccc2c(Nc3ccc(-c4ccc(C(F)(F)F)cc4)cc3)ncnc2c1,,luminescence,MIC50,,,>20 µM
CCc1cn(C2OC(COC(C)=O)C(OC(C)=O)C2F)c(=O)[nH]c1=O,,resazurin,MIC55,,,50 µg/mL
CCCCCCCCCCCCSCC#CC(=O)O,Pasteur,,MIC,,,1.1 µM
CC(C)[C@]1(C)CC[C@]2(C)C=CC(C)(C)C[C@H](OC(=O)c3ccc(O)cc3)C12,Pasteur,,MIC,,,50 µg/mL
O=C(C1CCN(c2nnc(-n3cccc3)s2)CC1)N1CCC(Cc2ccccc2)CC1,recG,fluorescence,MIC,,DprE1 mutant (G248S),6.25 µM
FC(F)(F)c1cccc(Oc2ccc(CNc3ncnc4ccccc34)cc2)c1,,luminescence,MIC50,,,>20 µM
CCOC(=O)NC(=O)c1ccsc1NC(=O)c1nc2ccccc2s1,,turbidity,MIC99,biofilm,,0.04 µg/mL
FC(F)(F)c1ccc(N2CCN(c3ccc(Nc4ncnc5ccccc45)cc3)CC2)cc1,,luminescence,MIC50,,,>10 µM
O=C(NCCNC(=O)c1ccc2c(c1)B(O)OC2)c1ccc2c(c1)B(O)OC2,,visual reading / absorbance,MIC,,,780 µM
CC(=O)Nc1ccc(/C=N/n2cn[nH]c2=S)cc1,,broth dilution / resazurin,MIC,48 h,,125 µg/mL
O=S(=O)(c1ccc(OC(F)(F)F)cc1)C1CCN(c2ccc(Nc3ncnc4cc(F)ccc34)cc2)CC1,,luminescence,MIC50,,,>50 µM
CCSCCCCCCCCCCCCC#CC(=O)O,mc22421,,MIC99,,,2.6 µM
Fc1ccc2c(Nc3ccc(N4CCOCC4)c(F)c3)ncnc2c1,,luminescence,MIC50,,,>50 µM
CC1=C[C@H](OC(=O)c2ccc(O)cc2)C2[C@](C)(CC[C@@]2(O)C(C)C)CC1=O,Pasteur,,MIC,,,50 µg/mL
FC(F)(F)c1ccc(Oc2ccc(Nc3ncnc4cc(Br)ccc34)cc2)cc1,,luminescence,MIC50,,,>20 µM
CCCCCCCCCCCCCC#CC(=O)OCCO,Pasteur,,MIC,,,1 µM
Fc1ccc2c(NCCc3ccccc3)ncnc2c1,,luminescence,MIC50,,,>50 µM
CCc1nc2ccc(Cl)cn2c1C(=O)NCc1ccc(N2CCC(c3ccc(OC(F)(F)F)cc3)CC2)cc1,,broth dilution,MIC50,,bd oxidase complemented,0.0029 µM
CCCCCCCCCCCCCC#CC(=O)OCC(O)CO,Pasteur,,MIC,,,1.9 µM
Fc1ccc2c(Nc3ccc(N4CCN(c5ccc(C(F)(F)F)cn5)CC4)cc3)ncnc2c1,,luminescence,MIC50,,,>20 µM
CCCCCCSCCCCCCCCCCC#CC(=O)O,mc22421,,MIC99,,,2.4 µM
Cc1nc(Nc2ccc(Oc3cccc(C(F)(F)F)c3)cc2)c2ccc(F)cc2n1,,luminescence,MIC50,,,>20 µM
CCCCCCCCCCCCCCCC#CC(=O)OCC(O)CO,Pasteur,,MIC,,,0.9 µM
c1ccc2c(Nc3ccc(N4CCCCC4)cc3)ncnc2c1,,luminescence,MIC50,,,>50 µM
CCc1ccc(-c2cc(CN3CCOCC3)c(C)n2-c2ccc(F)cc2)cc1,WILD TYPE,,MIC,,,0.04 µM
CC1=CCC2(C)CCC(O)(C(C)C)C2C(OC(=O)c2ccccc2)C1,Pasteur,,MIC,,,3.125 µg/mL
FC(F)(F)c1cccc(Oc2ccc(Nc3ncnc4ccccc34)cc2)n1,,luminescence,MIC50,,,>20 µM
C[C@H]1COC2(CCN(c3nc(=O)c4cc(C(F)(F)F)cc([N+](=O)[O-])c4s3)CC2)O1,recG,fluorescence,MIC,,,0.009 µM
CCCCCCCCCCCCCCCCC#CC(=O)O,Pasteur,,MIC,,,10.6 µM
CC1=C[C@H](OC(=O)c2ccc(O)cc2)C2[C@](C)(CC[C@@]2(O)C(C)C)C/C1=C/CO,Pasteur,,MIC,,,>50 µg/mL
FC(F)(F)c1cccc(Oc2ccc(CNc3ncnc4ccsc34)cn2)c1,,luminescence,MIC50,,,>20 µM
COc1cc(C(=O)O[C@H]2CC(C)(C)C=C[C@@]3(C)CC[C@@](C)(C(C)C)C23)ccc1O,Pasteur,,MIC,,,>50 µg/mL
Fc1ccc(Oc2ccc(CNc3ncnc4sccc34)cc2)cc1,,luminescence,MIC50,,,>20 µM
CC(C)[C@]1(C)CC[C@]2(C)C=C[C@](C)(O)C[C@H](OC(=O)c3ccccc3)C12,Pasteur,,MIC,,,>50 µg/mL
C[C@@H](NC(=O)c1cc(N=O)cc(C(F)(F)F)c1)c1ccccc1,,,EC50,,,4.6 µg/mL
C/C=C(\C)C(=O)O[C@@H]1C=C(C)CC[C@]2(O)[C@@H](C(C)C)CC(=O)[C@]12C,Pasteur,,MIC,,,50 µg/mL
O=S1(=O)CCN(c2ccc(CNc3ncnc4ccsc34)cc2)CC1,,luminescence,MIC50,,,>20 µM
COc1cc(C(=O)O[C@H]2C=C(C)C(=O)C[C@@]3(C)CC[C@@](O)(C(C)C)C23)ccc1O,Pasteur,,MIC,,,>50 µg/mL
CNC(C)C1CC[C@@H](N)[C@@H](O[C@H]2[C@H](O)[C@@H](OC3OC[C@](C)(O)[C@H](NC)[C@H]3O)[C@H](N)C[C@@H]2N)O1,,resazurin,MIC,,,16 µM

The last 5 rows once more:

C[C@@H](NC(=O)c1cc(N=O)cc(C(F)(F)F)c1)c1ccccc1 ; read-out: EC50 ; result: 4.6 µg/mL
C/C=C(\C)C(=O)O[C@@H]1C=C(C)CC[C@]2(O)[C@@H](C(C)C)CC(=O)[C@]12C ; strain or isolate: Pasteur ; read-out: MIC ; result: 50 µg/mL
O=S1(=O)CCN(c2ccc(CNc3ncnc4ccsc34)cc2)CC1 ; read by: luminescence ; read-out: MIC50 ; result: >20 µM
COc1cc(C(=O)O[C@H]2C=C(C)C(=O)C[C@@]3(C)CC[C@@](O)(C(C)C)C23)ccc1O ; strain or isolate: Pasteur ; read-out: MIC ; result: >50 µg/mL
CNC(C)C1CC[C@@H](N)[C@@H](O[C@H]2[C@H](O)[C@@H](OC3OC[C@](C)(O)[C@H](NC)[C@H]3O)[C@H](N)C[C@@H]2N)O1 ; read by: resazurin ; read-out: MIC ; result: 16 µM